Reference: article PMC9115111, “Metalloprotease Gp63-Targeting Novel Glycoside Exhibits Potential Antileishmanial Activity” (Frontiers in Cellular and Infection Microbiology, 2022)

The compounds below were run on J774.A1 murine macrophage cells (assay: MTT cell viability assay on macrophages). Conditions: selectivity index = CC50 / IC50 against promastigotes.
Type: cell-based
Protocol: The J774.A1 murine macrophage cells were grown in Roswell Park Memorial Institute (RPMI) 1640 medium in the presence of 10% (v/v) FBS and 100 U/ml penicillin−100 µg/ml streptomycin (Gibco, Invitrogen, Thermo Fisher Scientific, NY, USA) at 37°C (humidified) and 5% CO2. […] Madin–Darby canine kidney (MDCK) cells were obtained from the National Centre for Cell Science, Pune, India. MDCK cells were derived from the kidney tissue of an adult female Cocker Spaniel. These were grown in Dulbecco’s modified Eagle’s minimal essential medium (DMEM) in the presence of 10% (v/v) FBS and 100 U/ml penicillin−100 µg/ml streptomycin (Gibco, Invitrogen, Thermo Fisher Scientific, NY, USA) at 37°C (humidified) and 5% CO2 ([Ayana et al., 2018]; [Shivappagowdar et al., 2021]).
All the compounds were dissolved in dimethyl sulfoxide (DMSO) (Sigma-Aldrich) for 1 mM stock solution and were screened against promastigotes at a concentration of 5 µM. For Glycosides (Gly) 2, 6, and 8, a range of concentrations starting from 100 nM to 100 µM were screened against promastigote forms of parasite and mammalian cells. Parasites (AG83 and PKDL strain) treated with amphotericin B (3 µg/ml) (Sigma-Aldrich) were maintained as the positive control.
To evaluate the cytotoxic effects of 12 compounds on L. donovani promastigotes, LDH assay was performed. This assay involves the reduction of tetrazolium salts to formazan during LDH-mediated catalysis of lactate to pyruvate, which can be detected at […]. Rate of formazan formation is proportional to the release of LDH through damaged cell membranes. For the preliminary screening, the promastigotes were incubated with 12 compounds at a single concentration of 5 µM for a period of 72 h, and the released LDH was estimated ( Supplementary Figure S1A ). Amphotericin B-treated promastigotes were taken as the positive control. […] Having observed the antileishmanial effect of Gly2 on growth and proliferation of promastigotes, we next investigated the cytotoxicity of Gly2 on mammalian cells (MDCK, J774.1A) through MTT (3-(4, 5-dimethylthiazolyl-2)-2, 5-diphenyltetrazolium bromide) cell viability assay ( Supplementary Figures S1B, C ). […] The CC50 values of Gly2 analog was in the micromolar range. The selectivity index (SI) for the compound was calculated as the ratio between cytotoxicity (CC50) and activity (IC50) against promastigotes ( Table 1 ).

SMILES	SI Macrophages
CC(=O)OC[C@H]1OC(OCCC(C)C)[C@H](OC(C)=O)[C@@H](OC(C)=O)[C@@H]1OC(C)=O (some centres unmarked) [Gly6]	303.823
CC(=O)N[C@H]1[C@@H](OCCC(C)C)O[C@H](COC(C)=O)[C@@H](OC(C)=O)[C@@H]1OC(C)=O [Gly11]	4.162
CCCCO[C@H]1O[C@H](COC(C)=O)[C@@H](OC(C)=O)[C@H](OC(C)=O)[C@H]1NC(C)=O [Gly12]	2.936
CCCCCCOC1O[C@H](CO)[C@@H](O)[C@H](O)[C@H]1O (some centres unmarked) [Gly3]	132.090
CCCOC1O[C@H](COC(C)=O)[C@@H](OC(C)=O)[C@H](OC(C)=O)[C@H]1OC(C)=O (stereo partly drawn) [Gly8, (2R,3R,4S,5R)-2-(acetoxymethyl)-6-propoxytetrahydro-2H-pyran-3,4,5-triyl triacetate]	599.375
CCOC1O[C@H](CO)[C@@H](O)[C@H](O)[C@H]1NC(C)=O (stereo partly drawn) [Gly1, ethyl glycoside N-Acetyl-D-glucosamine]	3.813
CCOC1O[C@H](COC(C)=O)[C@@H](OC(C)=O)[C@H](OC(C)=O)[C@H]1OC(C)=O (some centres unmarked) [Gly7]	3.883
CCCOC1O[C@H](COC(C)=O)[C@@H](OC(C)=O)[C@H](OC(C)=O)[C@H]1NC(C)=O (some centres unmarked) [Gly10]	9.476
CCCCOC1O[C@H](COC(C)=O)[C@@H](OC(C)=O)[C@H](OC(C)=O)[C@H]1OC(C)=O (some centres unmarked) [Gly4]	36.304
CCCCCCOC1O[C@H](COC(C)=O)[C@@H](OC(C)=O)[C@H](OC(C)=O)[C@H]1OC(C)=O (some centres unmarked) [Gly5]	26.666
CC(=O)OC[C@H]1OC(OC(C)C)[C@H](OC(C)=O)[C@@H](OC(C)=O)[C@@H]1OC(C)=O (some centres unmarked) [Gly9]	7.111
